Reference: publication PMC4776139, “Extended string-like binding of the phosphorylated HP1α N-terminal tail to the lysine 9-methylated histone H3 tail” (Scientific Reports, 2016)

Tested on: H3K9me peptide (22-mer, amino acids 1–21 of histone H3 with a C-terminal tyrosine)
Experiment: Isothermal titration calorimetry (ITC) of HP1α chromodomain constructs with H3K9me peptide
Settings: 20 °C, pH 6.80, one-site binding model
Method: Protein solution (40 μM) was loaded into a VP-ITC isothermal titration calorimeter (Microcal, INC.) cell (active cell volume 1.4 ml). The solution was titrated against 400 μM ligand solution via a 250 μl titration syringe. Experiments were carried out at 20 °C. The ligand solution was prepared in the same buffer as the protein (20 mM KPB (pH 6.80), 10 mM NaCl). The heat of dilution generated by the ligand was subtracted, and the binding isotherms were fitted to a one-site binding model by using Origin 7 Software (Microcal, INC.). From the values of Kd and ΔH, the thermodynamic parameters, ΔG and ΔS were calculated according to the basic thermodynamic equations;

| Substance | N (stoichiometry) [sites] |
| --- | --- |
| NCD^Δ1–4: N-terminal deletion mutant, amino acids 5–80 of HP1α | 1.04 |
| NCD^Δ1–9: N-terminal deletion mutant, amino acid 10–80 of HP1α | 1.01 |
| NCD^Δ1–14: acidic segment plus CD, amino acids 15–80 of HP1α | 1.00 |
| NCD^Δ1–19: CD domain alone, amino acids 20–80 of HP1α | 1.08 |
| phos-NCD: chromodomain with phosphorylated N-terminal tail, amino acids 1–80 of HP1α, co-expressed with casein kinase II | 1.03 |
| phos-NCD^Δ1–4: NCD^Δ1–4 (amino acids 5–80) with phosphorylated serine residues | 1.03 |
| phos-NCD^Δ1–9: phosphorylated NCD^Δ1–9 form, amino acids 10–80 of HP1α | 1.04 |
| unmod-NCD: chromodomain with un-phosphorylated N-terminal tail, amino acids 1–80 of HP1α | 1.09 |
